Experimental data taken from patent publication US20220002699A1 (PLANET BIOTECHNOLOGY, published 2022).

Molecular target: SARS-CoV-2 Spike protein S1 domain (Wuhan, wild type) (SARS-CoV-2)

B1: ACE2-([…],H34S)-(GGGGS)2-Fc4 (Fc fusion)
chain: not shown
EC50 (read off the curve): ~3 nM and ~4 nM

“And” between values parts separate entries of the source, which are not always exact repeats. Identical values can stand only once.
